In publication PMC5722314, “Substitutions of PrP N-terminal histidine residues modulate scrapie disease pathogenesis and incubation time in transgenic mice” (2017):

Target: recombinant full-length mouse PrP (wt rPrP), PrP23-230 (mouse) (UniProt P04925)

For “recombinant full-length mouse PrP (wt rPrP), PrP23-230, P04925 23-230”, the percent decrease of aggregation with 1 uM Cu2+ against 0.02% SDS alone was 70%, the percent decrease of aggregation with 100 uM EDTA against 0.02% SDS alone was 40% and the percent increase of aggregation with 30 uM Mn2+ against 0.02% SDS alone was 15%.
